In publication PMC9104152, “Phosphoproteomics Unravel HBV Triggered Rewiring of Host Phosphosignaling Events” (International Journal of Molecular Sciences, 2022):

B1: Q9UQE7 3xPhospho [S/Y] (protein, UniProt Q9UQE7 1-1217, looked up)
Structural maintenance of …: MYIKQVIIQGFRSYRDQTIVDPFSSKHNVIVGRNGSGKSNFFYAIQFVLSDEFSHLRPEQRLALLHEGTGPRVISAFVEIIFDNSDNRLPIDKEEVSLRRVIGAKKDQYFLDKKMVTKNDVMNLLESAGFSRSNPYYIVKQGKINQMATAPDSQRLKLLREVAGTRVYDERKEESISLMKETEGKREKINELLKYIEERLHTLEEEKEELAQYQKWDKMRRALEYTIYNQELNETRAKLDELSAKRETSGEKSRQLRDAQQDARDKMEDIERQVRELKTKISAMKEEKEQLSAERQEQIKQRTKLELKAKDLQDELAGNSEQRKRLLKERQKLLEKIEEKQKELAETEPKFNSVKEKEERGIARLAQATQERTDLYAKQGRGSQFTSKEERDKWIKKELKSLDQAINDKKRQIAAIHKDLEDTEANKEKNLEQYNKLDQDLNEVKARVEELDRKYYEVKNKKDELQSERNYLWREENAEQQALAAKREDLEKKQQLLRAATGKAILNGIDSINKVLDHFRRKGINQHVQNGYHGIVMNNFECEPAFYTCVEVTAGNRLFYHIVDSDEVSTKILMEFNKMNLPGEVTFLPLNKLDVRDTAYPETNDAIPMISKLRYNPRFDKAFKHVFGKTLICRSMEVSTQLARAFTMDCITLEGDQVSHRGALTGGYYDTRKSRLELQKDVRKAEEELGELEAKLNENLRRNIERINNEIDQLMNQMQQIETQQRKFKASRDSILSEMKMLKEKRQQSEKTFMPKQRSLQSLEASLHAMESTRESLKAELGTDLLSQLSLEDQKRVDALNDEIRQLQQENRQLLNERIKLEGIITRVETYLNENLRKRLDQVEQELNELRETEGGTVLTATTSELEAINKRVKDTMARSEDLDNSIDKTEAGIKELQKSMERWKNMEKEHMDAINHDTKELEKMTNRQGMLLKKKEECMKKIRELGSLPQEAFEKYQTLSLKQLFRKLEQCNTELKKYSHVNKKALDQFVNFSEQKEKLIKRQEELDRGYKSIMELMNVLELRKYEAIQLTFKQVSKNFSEVFQKLVPGGKATLVMKKGDVEGSQSQDEGEGSGESERGSGSQSSVPSVDQFTGVGIRVSFTGKQGEMREMQQLSGGQKSLVALALIFAIQKCDPAPFYLFDEIDQALDAQHRKAVSDMIMELAVHAQFITTTFRPELLESADKFYGVKFRNKVSHIDVITAEMAKDFVEDDTTHG
modifications: 3x phospho
B2: Q7KZF4 1xPhospho [S426(99.3)] (protein, UniProt Q7KZF4 2-910, looked up)
Staphylococcal nuclease …: ASSAQSGGSSGGPAVPTVQRGIIKMVLSGCAIIVRGQPRGGPPPERQINLSNIRAGNLARRAAATQPDAKDTPDEPWAFPAREFLRKKLIGKEVCFTIENKTPQGREYGMIYLGKDTNGENIAESLVAEGLATRREGMRANNPEQNRLSECEEQAKAAKKGMWSEGNGSHTIRDLKYTIENPRHFVDSHHQKPVNAIIEHVRDGSVVRALLLPDYYLVTVMLSGIKCPTFRREADGSETPEPFAAEAKFFTESRLLQRDVQIILESCHNQNILGTILHPNGNITELLLKEGFARCVDWSIAVYTRGAEKLRAAERFAKERRLRIWRDYVAPTANLDQKDKQFVAKVMQVLNADAIVVKLNSGDYKTIHLSSIRPPRLEGENTQDKNKKLRPLYDIPYMFEAREFLRKKLIGKKVNVTVDYIRPASPATETVPAFSERTCATVTIGGINIAEALVSKGLATVIRYRQDDDQRSSHYDELLAAEARAIKNGKGLHSKKEVPIHRVADISGDTQKAKQFLPFLQRAGRSEAVVEYVFSGSRLKLYLPKETCLITFLLAGIECPRGARNLPGLVQEGEPFSEEATLFTKELVLQREVEVEVESMDKAGNFIGWLHIDGANLSVLLVEHALSKVHFTAERSSYYKSLLSAEEAAKQKKEKVWAHYEEQPVEEVMPVLEEKERSASYKPVFVTEITDDLHFYVQDVETGTQLEKLMENMRNDIASHPPVEGSYAPRRGEFCIAKFVDGEWYRARVEKVESPAKIHVFYIDYGNREVLPSTRLGTLSPAFSTRVLPAQATEYAFAFIQVPQDDDARTDAVDSVVRDIQNTQCLLNVEHLSAGCPHVTLQFADSKGDVGLGLVKEGLVMVEVRKEKQFQKVITEYLNAQESAKSARLNLWRYGDFRADDADEFGYSR
modifications: phosphorylated S426
B3: Q9NRS6 1xPhospho [S/T] (protein, UniProt Q9NRS6 1-342, looked up)
Sorting nexin-15: MSRQAKDDFLRHYTVSDPRTHPKGYTEYKVTAQFISKKDPEDVKEVVVWKRYSDFRKLHGDLAYTHRNLFRRLEEFPAFPRAQVFGRFEASVIEERRKGAEDLLRFTVHIPALNNSPQLKEFFRGGEVTRPLEVSRDLHILPPPLIPTPPPDDPRLSQLLPAERRGLEELEVPVDPPPSSPAQEALDLLFNCESTEEASGSPARGPLTEAELALFDPFSKEEGAAPSPTHVAELATMEVESARLDQEPWEPGGQEEEEDGEGGPTPAYLSQATELITQALRDEKAGAYAAALQGYRDGVHVLLQGVPSDPLPARQEGVKKKAAEYLKRAEEILRLHLSQLPP
modifications: monophosphorylated
B4: Q9BXP5 1xPhospho [T544(100)] (protein, UniProt Q9BXP5 2-876, looked up)
Serrate RNA effector molecule …: GDSDDEYDRRRRDKFRRERSDYDRSRERDERRRGDDWNDREWDRGRERRSRGEYRDYDRNRRERFSPPRHELSPPQKRMRRDWDEHSSDPYHSGYEMPYAGGGGGPTYGPPQPWGHPDVHIMQHHVLPIQARLGSIAEIDLGVPPPVMKTFKEFLLSLDDSVDETEAVKRYNDYKLDFRRQQMQDFFLAHKDEEWFRSKYHPDEVGKRRQEARGALQNRLRVFLSLMETGWFDNLLLDIDKADAIVKMLDAAVIKMEGGTENDLRILEQEEEEEQAGKPGEPSKKEEGRAGAGLGDGERKTNDKDEKKEDGKQAENDSSNDDKTKKSEGDGDKEEKKEDSEKEAKKSSKKRNRKHSGDDSFDEGSVSESESESESGQAEEEKEEAEEALKEKEKPKEEEWEKPKDAAGLECKPRPLHKTCSLFMRNIAPNISRAEIISLCKRYPGFMRVALSEPQPERRFFRRGWVTFDRSVNIKEICWNLQNIRLRECELSPGVNRDLTRRVRNINGITQHKQIVRNDIKLAAKLIHTLDDRTQLWASEPGTPPLPTSLPSQNPILKNITDYLIEEVSAEEEELLGSSGGAPPEEPPKEGNPAEINVERDEKLIKVLDKLLLYLRIVHSLDYYNTCEYPNEDEMPNRCGIIHVRGPMPPNRISHGEVLEWQKTFEEKLTPLLSVRESLSEEEAQKMGRKDPEQEVEKFVTSNTQELGKDKWLCPLSGKKFKGPEFVRKHIFNKHAEKIEEVKKEVAFFNNFLTDAKRPALPEIKPAQPPGPAQILPPGLTPGLPYPHQTPQGLMPYGQPRPPILGYGAGAVRPAVPTGGPPYPHAPYGAGRGNYDAFRGQGGYPGKPRNRMVRGDPRAIVEYRDLDAPDDVDFF
modifications: phospho T544
B5: Q01130 (protein, UniProt Q01130 1-221, looked up)
chain: MSYGRPPPDVEGMTSLKVDNLTYRTSPDTLRRVFEKYGRVGDVYIPRDRYTKESRGFAFVRFHDKRDAEDAMDAMDGAVLDGRELRVQMARYGRPPDSHHSRRGPPPRRYGGGGYGRRSRSPRRRRRSRSRSRSRSRSRSRSRYSRSKSRSRTRSRSRSTSKSRSARRSKSKSSSVSRSRSRSRSRSRSRSPPPVSKRESKSRSRSKSPPKSPEEEGAVSS
modifications: full-length
B6: Q9H7L9 3xPhospho [S45(100); T49(100); S53(99.5)] (protein, UniProt Q9H7L9 2-328, looked up)
Sin3 histone deacetylase …: SAAGLLAPAPAQAGAPPAPEYYPEEDEELESAEDDERSCRGRESDEDTEDASETDLAKHDEEDYVEMKEQMYQDKLASLKRQLQQLQEGTLQEYQKRMKKLDQQYKERIRNAELFLQLETEQVERNYIKEKKAAVKEFEDKKVELKENLIAELEEKKKMIENEKLTMELTGDSMEVKPIMTRKLRRRPNDPVPIPDKRRKPAPAQLNYLLTDEQIMEDLRTLNKLKSPKRPASPSSPEHLPATPAESPAQRFEARIEDGKLYYDKRWYHKSQAIYLESKDNQKLSCVISSVGANEIWVRKTSDSTKMRIYLGQLQRGLFVIRRRSAA
modifications: phospho S45, T49, S53
B7: Q8TAQ9 1xPhospho [S] (protein, UniProt Q8TAQ9 1-357, looked up)
SUN domain-containing protein …: MSGKTKARRAAMFFRRCSEDASGSASGNALLSEDENPDANGVTRSWKIILSTMLTLTFLLVGLLNHQWLKETDVPQKSRQLYAIIAEYGSRLYKYQARLRMPKEQLELLKKESQNLENNFRQILFLIEQIDVLKALLRDMKDGMDNNHNWNTHGDPVEDPDHTEEVSNLVNYVLKKLREDQVEMADYALKSAGASIIEAGTSESYKNNKAKLYWHGIGFLNHEMPPDIILQPDVYPGKCWAFPGSQGHTLIKLATKIIPTAVTMEHISEKVSPSGNISSAPKEFSVYGITKKCEGEEIFLGQFIYNKTGTTVQTFELQHAVSEYLLCVKLNIFSNWGHPKYTCLYRFRVHGTPGKHI
modifications: phosphorylated
B8: Q9UMZ2 1xPhospho [S1075(100)] (protein, UniProt Q9UMZ2 1-1314, looked up)
Synergin gamma: MALRPGAGSGGGGAAGAGAGSAGGGGFMFPVAGGIRPPQAGLMPMQQQGFPMVSVMQPNMQGIMGMNYSSQMSQGPIAMQAGIPMGPMPAAGMPYLGQAPFLGMRPPGPQYTPDMQKQFAEEQQKRFEQQQKLLEEERKRRQFEEQKQKLRLLSSVKPKTGEKSRDDALEAIKGNLDGFSRDAKMHPTPASHPKKPGPSLEEKFLVSCDISTSGQEQIKLNTSEVGHKALGPGSSKKYPSLMASNGVAVDGCVSGTTTAEAENTSDQNLSIEESGVGVFPSQDPAQPRMPPWIYNESLVPDAYKKILETTMTPTGIDTAKLYPILMSSGLPRETLGQIWALANRTTPGKLTKEELYTVLAMIAVTQRGVPAMSPDALNQFPAAPIPTLSGFSMTLPTPVSQPTVIPSGPAGSMPLSLGQPVMGINLVGPVGGAAAQASSGFIPTYPANQVVKPEEDDFQDFQDASKSGSLDDSFSDFQELPASSKTSNSQHGNSAPSLLMPLPGTKALPSMDKYAVFKGIAADKSSENTVPPGDPGDKYSAFRELEQTAENKPLGESFAEFRSAGTDDGFTDFKTADSVSPLEPPTKDKTFPPSFPSGTIQQKQQTQVKNPLNLADLDMFSSVNCSSEKPLSFSAVFSTSKSVSTPQSTGSAATMTALAATKTSSLADDFGEFSLFGEYSGLAPVGEQDDFADFMAFSNSSISSEQKPDDKYDALKEEASPVPLTSNVGSTVKGGQNSTAASTKYDVFRQLSLEGSGLGVEDLKDNTPSGKSDDDFADFHSSKFSSINSDKSLGEKAVAFRHTKEDSASVKSLDLPSIGGSSVGKEDSEDALSVQFDMKLADVGGDLKHVMSDSSLDLPTVSGQHPPAADIEDLKYAAFGSYSSNFAVSTLTSYDWSDRDDATQGRKLSPFVLSAGSGSPSATSILQKKETSFGSSENITMTSLSKVTTFVSEDALPETTFPALASFKDTIPQTSEQKEYENRDYKDFTKQDLPTAERSQEATCPSPASSGASQETPNECSDDFGEFQSEKPKISKFDFLVATSQSKMKSSEEMIKSELATFDLSVQGSHKRSLSLGDKEISRSSPSPALEQPFRDRSNTLNEKPALPVIRDKYKDLTGEVEENERYAYEWQRCLGSALNVIKKANDTLNGISSSSVCTEVIQSAQGMEYLLGVVEVYRVTKRVELGIKATAVCSEKLQQLLKDIDKVWNNLIGFMSLATLTPDENSLDFSSCMLRPGIKNAQELACGVCLLNVDSRSRKEEKPAEEHPKKAFNSETDSFKLAYGGHQYHASCANFWINCVEPKPPGLVLPDLL
modifications: phosphorylated S1075

Tested on: HepG2-NTCP cells
Assay: TMT-based phosphoproteome profiling of HBV-infected vs mock HepG2-NTCP (HBV/mock ratio)
Design: species or system human
Details: HBV-infected vs mock HepG2-NTCP, sheet Up-regulated
[1] = phosphosite abundance ratio of host protein, 7dpi
[2] = phosphosites of host proteins deregulated at 7dpi

Molecule | HBV/mock [1] | HBV/mock [2]
B1 | 1.3548 | 
B2 | 1.681 | 
B3 | 1.554 | 
B4 |  | 1.433
B5 |  | 1.3401
B6 |  | 1.425
B7 |  | 1.413
B8 |  | 1.572
